Measured values from several laboratories, pooled; numbers as filed in NIAID ChemDB.

Common to all: tests on isolated targets

Percent inhibition refers to the dose given; in toxicity tests it is the harm to the cells. Blank or dashed fields: not listed here. ICn is the concentration giving n% inhibition. Rows are shuffled and stem from different studies. Fold resistance has wild type as its base.

smiles	protein	organism	endpoint	changes	strain	read by	tested at	value
CN(C)CCCNC(=O)c1cc(NC(=O)c2cc(NC(=O)c3cc(NC(=O)c4ncccc4C(=O)O)cn3C)cn2C)cn1C	Integrase	HIV-2	IC50			3′ processing		>100 µM
O=c1cnc2ccccc2n1CCNC(=S)Nc1ccc(Br)cn1	Reverse transcriptase	HIV-1	Ki	RT-Y181I		nucleotide incorporation		2 µM
COc1ccc2c(c1)N(C(=O)OC(C)C)[C@@H](CSC)C(=S)N2	Reverse transcriptase	HIV	IC50	RT-D67N K70R T215F K219Q L100I		RT activity		0.013 µg/mL
CC[C@H]1C(=O)Nc2ccc(F)cc2N1C(=O)OC(C)C	Reverse transcriptase	HIV	fold resistance	RT-P140A		nucleotide incorporation / radiometric		0.91
Oc1[nH]c2ccc(Cl)cc2c1N=Nc1nc(-c2ccc(F)cc2F)cs1	RNase H	HIV-1	IC50			RNase H / fluorescence		6 µM
CC(C)[C@H](NC(=O)c1ccc2ccccc2n1)C(=O)N[C@H](CCN1CC[C@@H](SCc2ccncc2)C[C@H]1C(=O)NC(C)(C)C)Cc1ccccc1	Protease	HIV-2	IC50					0.01 µM
C=CCOC(=O)C1=C(C)NC(N)=[N+]2[C@H](C[C@@H](O)CCCCCCOCc3ccccc3)CC[C@H]12	Nef	HIV-1	IC50		NL4-3	ELISA		<5 µM
COc1cc2ccc(=O)oc2c(O)c1O	gp41	HIV-1	inhibition			ELISA	50 µg/mL	29%
Cc1cccc(C)c1OCC(=O)N[C@H](CCN1CC[C@@H](Sc2ncccn2)C[C@H]1C(=O)NC(C)(C)C)Cc1ccccc1	Protease	HIV-2	IC50					0.009 µM
O=C(/C=C/c1ccc(O)c(O)c1)O[C@H]1[C@H](O)[C@@H](O)[C@H](OCCc2ccc(O)c(O)c2)O[C@@H]1CO	gp41	HIV-1	IC50			ELISA		>50 µg/mL
Cc1cn([C@H]2C=C[C@@H](COP(=O)(O)OP(=O)(O)OP(=O)(O)O)O2)c(=O)[nH]c1=O	Reverse transcriptase	HIV	IC50	RT-N137Q		nucleotide incorporation / radiometric		0.24 µM
CC[C@H]1C=CCC[C@@]2(C[C@@H]3CC[C@H]4[C@H](C(=O)OCCCCCCCCCCCCCCCC(=O)N(CCC[NH3+])C[C@@H](O)CC[NH3+])[C@@]5(CCC[C@@H](C)O5)NC(=[N+]34)N2)O1	Nef	HIV-1	inhibition		NL4-3	ELISA	5 µM	93.3%
O=C1c2c(O)cc(O)cc2O[C@H](c2ccc(O)cc2)[C@H]1O	gp120	HIV-1	inhibition			ELISA	20 µg/mL	80%
O=c1ccc2cc(O)c(O)cc2o1	gp41	HIV-1	inhibition			ELISA	50 µg/mL	31%
O=C1C[C@@H](c2ccc(O)cc2)Oc2cc(O[C@@H]3C[C@@H](O)[C@H](O)[C@@H](CO)O3)cc(O)c21	gp120	HIV-1	inhibition			ELISA	80 µg/mL	53%
Cc1cc(SC2=C(O)C[C@@](CCc3ccc(O)cc3)(C(C)C)OC2=O)c(C(C)(C)C)cc1N	Protease	HIV	fold resistance	PR-V32I				6
CC(=O)c1cccn1Cc1ccc(F)cc1	Integrase	HIV-1	IC50			binding		>100 µM
Oc1cc(O)c2c(c1)O[C@H](c1cc(O)c(O)c(O)c1)[C@H](O)C2	gp120	HIV-1	inhibition		IIIB	ELISA	10 µg/mL	0%
O=C(NCCc1ccc(O)c(O)c1)c1cc2cc(O)c(O)cc2[nH]1	RNase H + Reverse transcriptase	HIV-1	IC50			RNase H / fluorescence		17.5 µM
CN(C)CCCNC(=O)c1cc(NC(=O)c2cc(NC(=O)c3cc(NC(=O)c4cncc(C(=O)Nc5cc(C(=O)Nc6cc(C(=O)Nc7cc(C(=O)NCCCN(C)C)n(C)c7)n(C)c6)n(C)c5)c4)cn3C)cn2C)cn1C	Integrase	HIV-2	IC50			3′ processing		>100 µM
C[C@@H]1O[C@@H](Oc2c(-c3ccc(O)c(O)c3)oc3cc(O)cc(O)c3c2=O)[C@H](O)[C@H](O)[C@H]1O	RNase H	HIV-1	IC50					>500 µM
CN(C)CCCNC(=O)c1cc(NC(=O)c2cc(NC(=O)c3cc(NC(=O)c4ccccc4C(=O)O)cn3C)cn2C)cn1C	Integrase	HIV-2	IC50			3′ processing		>100 µM
CC[C@H]1C=CCC[C@@]2(C[C@@H]3CC[C@@H]4[C@H](C(=O)OCc5ccccc5)[C@]5(CCC[C@@H](C)O5)NC(=[N+]34)N2)O1	Nef	HIV-1	inhibition		NL4-3	ELISA	5 µM	79.8%
O=c1c2cccn2c2ccccc2n1CCNC(=S)Nc1ccc(Cl)cn1	Reverse transcriptase	HIV-1	fold resistance	RT-Y181I		nucleotide incorporation		>50
CCCCCCCCC[C@@H]1C[C@@H]2CCC3=C(C(=O)O[C@H](C)CCCCC[C@@H]4C[C@@H]5CC[C@@H]6C[C@H](C)NC(=[N+]65)N4)[C@@H](C)NC(=[N+]32)N1	Nef	HIV-1	inhibition		NL4-3	ELISA	5 µM	82.5%
O=C1c2cccnc2C(=O)N1CCNC(=S)Nc1ccc(Br)cn1	Reverse transcriptase	HIV-1	fold resistance	RT-Y188L		nucleotide incorporation		31.6
CC[C@H]1C=CCC[C@@]2(C[C@@H]3CC[C@@H]4[C@H](C(=O)OC/C=C/c5ccccc5)[C@]5(CCC[C@@H](C)O5)NC(=[N+]34)N2)O1	Nef	HIV-1	IC50		NL4-3	ELISA		<5 µM
C[C@@H]1O[C@@H](O[C@@H]2[C@@H](O)[C@H](OCCc3ccc(O)c(O)c3)O[C@H](CO)[C@H]2OC(=O)/C=C/c2ccc(O)c(O)c2)[C@H](O)[C@H](O)[C@H]1O	gp41	HIV-1	inhibition			ELISA	50 µg/mL	8%
CC(C)(N)C(=O)O.[Na+]	Capsid	HIV-1	IC50			p24 / ELISA		0.85 µM
CCCCOC(=O)C(=O)CC(=O)c1cccn1Cc1ccc(F)cc1	Integrase	HIV-1	IC50			binding		0.24 µM
CC(C)[C@H](NC(=O)c1ccc2ccccc2n1)C(=O)N[C@H](CCN1CC[C@@H](SCc2ccccn2)C[C@H]1C(=O)NC(C)(C)C)Cc1ccccc1	Protease	HIV-2	IC50					≤0.0018 µM
CN(C)CCCNC(=O)c1cc(NC(=O)c2cc(NC(=O)c3cc(NC(=O)c4ccc(C(=O)Nc5cc(C(=O)Nc6cc(C(=O)Nc7cc(C(=O)NCCCN(C)C)n(C)c7)n(C)c6)n(C)c5)nc4)cn3C)cn2C)cn1C	Integrase	HIV-2	IC50			3′ processing		0.37 µM
C[C@H](N)C(=O)O.[Na+]	Capsid	HIV-1	IC50			p24 / ELISA		0.36 µM
CC(C)OC(=O)C(=O)CC(=O)c1cccn1Cc1ccc(F)cc1	Integrase	HIV-1	IC50			binding		0.32 µM
O=C1c2c(O)cc(O[C@@H]3C[C@@H](O)[C@H](O)[C@@H](CO)O3)cc2O[C@H](c2ccc(O)cc2)[C@H]1O	gp120	HIV-1	inhibition			ELISA	250 µg/mL	40%
Cc1cn([C@@H]2O[C@H](CO[Si](C)(C)C(C)(C)C)C3(OS(=O)(=O)C=C3N)[C@H]2O[Si](C)(C)C(C)(C)C)c(=O)n(C)c1=O	Reverse transcriptase	HIV	fold resistance	RT-P95A		nucleotide incorporation / radiometric		0.57
O=C(O[C@@H]1Cc2c(O)cc(O)cc2O[C@@H]1c1ccc(O)c(O)c1)c1cc(O)c(O)c(O)c1	gp120	HIV-1	inhibition		IIIB	ELISA	0.4 µg/mL	11%

Repeating the final 4 entries:

smiles	protein	organism	endpoint	changes	strain	read by	tested at	value
CC(C)OC(=O)C(=O)CC(=O)c1cccn1Cc1ccc(F)cc1	Integrase	HIV-1	IC50			binding		0.32 µM
O=C1c2c(O)cc(O[C@@H]3C[C@@H](O)[C@H](O)[C@@H](CO)O3)cc2O[C@H](c2ccc(O)cc2)[C@H]1O	gp120	HIV-1	inhibition			ELISA	250 µg/mL	40%
Cc1cn([C@@H]2O[C@H](CO[Si](C)(C)C(C)(C)C)C3(OS(=O)(=O)C=C3N)[C@H]2O[Si](C)(C)C(C)(C)C)c(=O)n(C)c1=O	Reverse transcriptase	HIV	fold resistance	RT-P95A		nucleotide incorporation / radiometric		0.57
O=C(O[C@@H]1Cc2c(O)cc(O)cc2O[C@@H]1c1ccc(O)c(O)c1)c1cc(O)c(O)c(O)c1	gp120	HIV-1	inhibition		IIIB	ELISA	0.4 µg/mL	11%